The structures appear in SMILES notation. The entries are a selection whose mix differs from that of the whole data set. Some structures show a salt or complex split into parts, the way the source records it. Calls of active or inactive are those of the source. Calls come from the whole dose curve; as a rule, active = well fitted inhibition curve with a large enough effect; inconclusive = small, poorly fitted or top-dose-only effect, or another doubt; inactive = no such curve, though single readings can be large or run the other way.
% is set by controls: 0 for no effect and ±100 for the full control effect.

Sequences of proteins named here, by UniProt entry; tags and fusion partners are left off.
UniProt Q27686, whole entry: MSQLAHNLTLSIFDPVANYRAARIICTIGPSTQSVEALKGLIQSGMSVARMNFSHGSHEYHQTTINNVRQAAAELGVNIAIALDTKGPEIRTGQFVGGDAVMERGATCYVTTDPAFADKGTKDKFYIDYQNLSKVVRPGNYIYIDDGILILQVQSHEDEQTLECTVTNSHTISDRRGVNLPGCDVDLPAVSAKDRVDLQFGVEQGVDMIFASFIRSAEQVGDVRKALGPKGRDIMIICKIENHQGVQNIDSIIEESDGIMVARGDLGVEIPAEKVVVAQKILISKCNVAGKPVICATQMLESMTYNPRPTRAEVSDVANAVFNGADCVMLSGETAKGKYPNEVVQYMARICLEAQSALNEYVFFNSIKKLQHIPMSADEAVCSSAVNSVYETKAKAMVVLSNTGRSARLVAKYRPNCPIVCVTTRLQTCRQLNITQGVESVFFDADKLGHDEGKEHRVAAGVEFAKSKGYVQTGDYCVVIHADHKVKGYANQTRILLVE

This experiment addresses Pyruvate kinase (Leishmania mexicana) (UniProt Q27686). Nature of the experiment: qHTS Assay for Inhibitors of Leishmania Mexicana Pyruvate Kinase (LmPK). As to conditions: purified LmPK, Kinase-Glo ATP luminescence, 1 h; at 57.5 µM (top of the series). An excerpt:
NIH Chemical Genomics Center [NCGC] Malcolm Walkinshaw, Hugh Morgan, Linda Gilmore University of Edinburgh, UK MLPCN Grant: 1 R03 MH085697-01 NCGC Assay Overview: Pyruvate kinase (L. Mexicana) (LmPK) enzyme was supplied as a highly purified (>95% pure) sulphate-free preparation from University of Edinburgh, UK and assayed for its ability to generate ATP from ADP using phosphoenolpyruvate (PEP) as a substrate. ATP generation was detected in a coupled reaction by luciferase-mediated luminescence, an ATP-dependent process. […] The enzyme was assayed at an intermediate level of activity to screen for both inhibitors and activators.
NCGC Assay Protocol Summary: Three uL of enzyme mix (kept on ice) in assay buffer (50 mM Imidazole pH7.2, 50 mM KCl, 7 mM MgCl2, 0.01% Tween 20, 0.05% BSA) containing PEP (0.5 mM final concentration) and LmPK (0.1 nM final concentration) was dispensed into white solid bottom 1,536 well microtiter plates. 23 nL of compound were delivered by a pin tool and 1 uL of ADP mix in assay buffer (r.t; 0.1 mM final ADP concentration) was added. Plates were incubated at room temperature for 1 hour. Two uL of detection mix (Kinase-Glo, Promega; at 4 degree Celsius protected from light) was added and luminescence read by a ViewLux (Perkin Elmer) at 1 second exposure/plate. Data were normalized to the uninhibited and AC100 inhibition (no enzyme). To monitor activation, the first column contained a five-fold concentration of LmPK (0.5 nM).
(qHTS replaces the single test concentration by a dilution series.)
Consider `CCOC(=O)C(CC)C1=NC(C)(C)Cc2ccccc21.O=[N+]([O-])c1cc([N+](=O)[O-])c(O)c([N+](=O)[O-])c1` (configuration not stated), for which the activity change, negative = inhibition was inactive: -2.94%.
Under `N/C(=N\O)c1c(N)no[n+]1[O-]` stands inactive: 4.02%; under `O=C(O)c1cccc(Nc2c([N+](=O)[O-])cc([N+](=O)[O-])cc2[N+](=O)[O-])c1`, inactive: -1.59%; under `O=[N+]([O-])c1cc([N+](=O)[O-])c(OC2CCCCC2O)c([N+](=O)[O-])c1` (configuration not stated), inactive: 7.79%.
Regarding `COc1ccc2c(c1O)-c1c(O)c(OC)cc3c1[C@H](C2)[N+](C)(C)CC3.O=[N+]([O-])c1cc([N+](=O)[O-])c([O-])c([N+](=O)[O-])c1[O-]`, the activity change, negative = inhibition was inactive: 0.381%.
Under `O=C(OC1CN2CCC1CC2)c1ccc([N+](=O)[O-])cc1` (configuration not stated) stands inactive: 3.1%; under `O=[N+]([O-])c1cc([N+](=O)[O-])c(NCC2CCS(=O)(=O)C2)c([N+](=O)[O-])c1` (configuration not stated), inactive: 4.93%.

Values taken from PubChem BioAssay AID1721 (National Center for Advancing Translational Sciences (NCATS), 2009).
